Compound potency records, mixed from different reports. Data source: NIAID ChemDB in PubChem.

Shared fields: tests in culture; organism: Mycobacterium tuberculosis

MIC50, MIC90 and the like: level of inhibition, or share of isolates inhibited. MIC bound comes from a single tested concentration. Two numbers with a dash give a range or band. Rows are shuffled and stem from different studies. Inhibition is in % at the dose shown (toxicity tests: loss of growth or viability). An empty or dashed field is not shown.

SMILES	cell line	measure	dose	method	strain or isolate	mutations	value
CN(c1cn([C@@H]2CC[C@H](CO)O2)c(=O)[nH]c1=O)C1CCCCC1	-	MIC bound	-	resazurin	H37Rv	-	>6.25 µg/mL
NCC[C@H](O)C(=O)N[C@@H]1C[C@H](N)[C@@H](O[C@H]2O[C@H](CN)[C@@H](O)[C@H](O)[C@H]2O)[C@H](O)[C@H]1O[C@H]1O[C@H](CO)[C@@H](O)[C@H](N)[C@H]1O	-	Mean MIC	-	-	H37Ra	-	0.74 µg/mL
CC(C)N=c1cc2n(-c3ccc(Cl)cc3)c3ccccc3nc-2cc1Nc1ccc(Cl)cc1	-	MIC	-	-	90-0233 (INH SM-RS)	-	0.4 µg/mL
CN(C)CCCN1c2ccccc2Sc2ccc(Cl)cc21	-	MBC	-	-	Isolate B drug-susceptible	-	20 µg/mL
Cc1ccccc1Sc1ncccn1	-	inhibition	6.25 µg/mL	-	H37Rv	-	0%
FC(F)(F)c1ccc(CNCCNCC23CC4CC(CC(C4)C2)C3)cc1	-	MIC	-	-	-	-	25 µM
C[C@@H]1CN(c2c(F)c(N)c3c(=O)c(C(=O)O)cn(C4CC4)c3c2F)C[C@H](C)N1	-	MIC	-	-	S-24M (susceptible)	-	0.2 µg/mL
CC1COc2c(N3CCN(C)CC3)c(F)cc3c(=O)c(C(=O)O)cn1c23	-	MIC	-	-	900201	-	0.75 µg/mL
Cn1cc(NC(=O)Nc2cc(C(=O)Nc3cc(C(=O)Nc4cc(C(=O)Nc5ccc6cc(S(=O)(=O)O)cc(S(=O)(=O)O)c6c5)n(C)c4)n(C)c3)n(C)c2)cc1C(=O)Nc1cc(C(=O)Nc2cc(C(=O)Nc3ccc4cc(S(=O)(=O)O)cc(S(=O)(=O)O)c4c3)n(C)c2)n(C)c1	-	inhibition	12.5 µg/mL	BACTEC	H37Rv	-	0%
CC[C@@H](CO)NCCN[C@@H](CC)CO	-	MIC	-	-	90-0216 (drug-susceptible)	-	1 µg/mL
CCCCC(CC)CN1CN(CC(CC)CCCC)CC(C)(NCCNCC(C)c2ccccc2)C1	-	MIC	-	-	-	-	6.25 µM
O=c1nc(SCc2ccccn2)c2[nH]cnc2[nH]1	-	inhibition	6.25 µg/mL	-	H37Rv	-	7%
CCc1cc(C(N)=S)ccn1	-	MIC	-	-	H37Rv	-	0.25 µg/mL
CN[C@@H]1[C@H](O[C@H]2[C@H](O[C@H]3[C@H](O)[C@@H](O)[C@H](N=C(N)N)[C@@H](O)[C@@H]3N=C(N)N)O[C@@H](C)[C@]2(O)C=O)O[C@@H](CO)[C@H](O)[C@H]1O	-	MIC80	-	broth dilution	35822	Isoniazid-resistant	0.3 µM
NC[C@@H]1O[C@H](O[C@H]2[C@@H](O)[C@H](O[C@@H]3[C@@H](O)[C@H](N)C[C@H](N)[C@H]3O[C@H]3O[C@H](CO)[C@@H](O)[C@H](O)[C@H]3N)O[C@@H]2CO)[C@H](N)[C@@H](O)[C@@H]1O	-	Median MIC	-	-	H37Rv	-	2 µg/mL
COc1ccc(C(C)c2cc(N=O)c(OC)cc2O)cc1	-	inhibition	12.5 µg/mL	BACTEC	H37Rv	-	9%
CO[C@H]1/C=C/O[C@@]2(C)Oc3c(C)c(O)c4c(O)c(c(/C=N/N5CCN(C/C=C/c6ccccc6)CC5)c(O)c4c3C2=O)NC(=O)/C(C)=C\C=C\[C@H](C)[C@H](O)[C@@H](C)[C@@H](O)[C@@H](C)[C@H](OC(C)=O)[C@@H]1C	-	MIC	-	-	MTB36 (INH-R)	-	≤0.06 µg/mL
CCOc1ccccc1CNCCNCCc1ccc(Cl)cc1Cl	-	MIC	-	-	-	-	25 µM
NNC(=O)c1ccncc1	-	MIC	-	-	H37Rv	-	0.05 µg/mL
NC[C@H]1O[C@H](O[C@H]2[C@H](O)[C@@H](O[C@H]3O[C@H](CO)[C@@H](O)[C@H](N)[C@H]3O)[C@H](N)C[C@@H]2N)[C@H](O)[C@@H](O)[C@@H]1O	-	MIC	-	-	A2B (amikacin-resistant)	-	128 µg/mL
CN(C)c1ccc(O)c2c1C[C@H]1C[C@H]3[C@H](N(C)C)C(=O)C(C(N)=O)=C(O)[C@@]3(O)C(=O)C1=C2O	-	Median MIC	-	-	H37Ra	-	2 µg/mL
Cc1ccc(NCCN(C)C)c2c(=O)c3c(O)cccc3sc12	-	MIC	-	BACTEC	H37Rv	-	3.13 µg/mL
COc1ccccc1N=Nc1c(O)c2ccc([N+](=O)[O-])cc2[nH]c1=O	-	inhibition	6.25 µg/mL	resazurin	H37Rv	-	96%
CO[C@H]1/C=C/O[C@@]2(C)Oc3c(C)c(O)c4c(O)c(c(/C=N/N5CCN(C)CC5)c(O)c4c3C2=O)NC(=O)/C(C)=C\C=C\[C@H](C)[C@H](O)[C@@H](C)[C@@H](O)[C@@H](C)[C@H](OC(C)=O)[C@@H]1C	-	MIC80	-	broth dilution	17003	Ethambutol-resistant	0.04 µM
O=C1CNC(c2ccccc2)C(c2ccccc2)N1	-	inhibition	12.5 µg/mL	BACTEC	H37Rv	-	-7%
COc1ccc(OC)c(CCNCCNC2CCCCCCC2)c1	-	MIC	-	-	-	-	50 µM
[O-][n+]1c2ccccc2nc2ccccc21	-	inhibition	12.5 µg/mL	BACTEC	H37Rv	-	98%
NNC(=O)c1ccncc1	-	MIC	-	-	Strain 102	-	0.06 µg/mL
Cc1nc(-c2ccc(Cl)cc2)cn2c1nc1ccccc12	-	inhibition	12.5 µg/mL	BACTEC	H37Rv	-	42%
C/C(=N\NC(=S)N(C)C)c1ccccn1.[Cu][Br]	-	MIC90	-	-	H37Rv	-	12.5 µM
CO[C@H]1/C=C/O[C@@]2(C)Oc3c(C)c(O)c4c(O)c(c(/C=N/N5CCN(C)CC5)c(O)c4c3C2=O)NC(=O)/C(C)=C\C=C\[C@H](C)[C@H](O)[C@@H](C)[C@@H](O)[C@@H](C)[C@H](OC(C)=O)[C@@H]1C	-	MIC	-	-	TN798	-	>32 µg/mL
NNC(=O)c1ccncc1	-	Mean MIC	-	-	H37Rv	-	0.05 µg/mL
Cc1cccc(CSc2ncccn2)c1	-	inhibition	6.25 µg/mL	-	H37Rv	-	0%
CC[C@@H](CO)NCCN[C@@H](CC)CO	-	MIC80	-	broth dilution	12119	Ofloxacin-resistant	4.9 µM
O=C1C2=C(Nc3cc([N+](=O)[O-])ccc3N2)OC1c1ccc(C2OC3=C(Nc4ccc([N+](=O)[O-])cc4N3)C2=O)cc1	-	MIC bound	-	BACTEC	H37Rv	-	>12.5 µg/mL
CN[C@@H]1[C@H](O[C@H]2[C@H](O[C@H]3[C@H](O)[C@@H](O)[C@H](N=C(N)N)[C@@H](O)[C@@H]3N=C(N)N)O[C@@H](C)[C@]2(O)C=O)O[C@@H](CO)[C@H](O)[C@H]1O	-	Median MIC	-	-	H37Rv	-	0.29 µg/mL
O=[N+]([O-])c1ccc(/C=C/C=C/c2ccc(Cl)cc2S(=O)(=O)F)c(Cl)c1	-	MIC bound	-	BACTEC	H37Rv	-	>12.5 µg/mL
COc1ccc(Sc2ncccn2)cc1	-	MIC90	-	-	H37Rv	-	>6.25 µg/mL
CCCCCCCCC[C@@H]1CC(=O)NCC(=O)N[C@@H](C(C)C)C(=O)N[C@H](CC(C)C)C(=O)N[C@@H](C)C(=O)N[C@@H](C(C)C)C(=O)O1	-	inhibition	12.8 µg/mL	BACTEC	H37Rv	-	0%
C=CCNCCNC1(C)CN(CC(CC)CCCC)CN(CC(CC)CCCC)C1	-	MIC	-	-	-	-	12.5 µM
C[C@]1(COc2ccc(N3CCC(Oc4ccc(OC(F)(F)F)cc4)CC3)cc2)Cn2cc([N+](=O)[O-])nc2O1	-	MIC90	-	-	11 strains (EMB-resistant)	-	0.014 µg/mL
Cc1cccc(N=Nc2c(O)c3ccc(C)cc3[nH]c2=O)c1	-	inhibition	6.25 µg/mL	resazurin	H37Rv	-	76%
CC1COc2c(N3CCN(C)CC3)c(F)cc3c(=O)c(C(=O)O)cn1c23	-	Mean MIC	-	-	H37Ra	-	0.44 µg/mL
CO[C@H]1/C=C/O[C@@]2(C)Oc3c(C)c(O)c4c(=O)c(c5oc6cc(N7CCN(CC(C)C)CC7)cc(=O)c6nc5c4c3=C2O)NC(=O)/C(C)=C\C=C\[C@H](C)[C@H](O)[C@@H](C)[C@@H](O)[C@@H](C)[C@H](OC(C)=O)[C@@H]1C	-	MBC	-	-	2237 (rifampicin-susceptible)	-	0.007 µg/mL
CC1COc2c(N3CCN(C)CC3)c(F)cc3c(=O)c(C(=O)O)cn1c23	-	MIC	-	-	90-0240 (drug-susceptible)	-	0.5 µg/mL
NC(=O)c1ccc(N=Nc2c(O)c3ccccc3[nH]c2=O)cc1	-	MIC bound	-	BACTEC	H37Rv	-	>12.5 µg/mL
COc1ccc(CCC2CCc3ccccc3N2C)cc1OC	-	MIC	-	-	MT5	-	50 µg/mL
C[C@@H]1CN(c2c(F)c(N)c3c(=O)c(C(=O)O)cn(C4CC4)c3c2F)C[C@H](C)N1	-	MIC	-	-	90-0241 (drug-susceptible)	-	0.1 µg/mL
Cc1onc(-c2ccccc2Cl)c1C(=O)N[C@@H]1C(=O)N2[C@@H]1SC(C)(C)[C@@H]2C(=O)O	-	Median MIC	-	-	H37Ra	-	64 µg/mL
O=c1[nH]c(=O)c2nccnc2[nH]1	-	inhibition	12.8 µg/mL	BACTEC	H37Rv	-	-1%
NNC(=O)c1ccncc1	-	MIC	-	resazurin	H37Rv	-	0.0062–0.012 µg/mL
CCCCCCCCCCCCNNC(=O)C1C(c2cc(OC)c(OC)c(OC)c2)c2cc3c(cc2C(O)C1CO)OCO3	-	inhibition	12.5 µg/mL	BACTEC	H37Rv	-	12%
CC(=O)c1ccc(N=Nc2c(O)c3ccc(Cl)c(Cl)c3[nH]c2=O)cc1	-	MIC	-	resazurin	H37Rv	-	<6.25 µg/mL
CN(C)c1ccc(N=C2C=CC(=[N+](C)C)C=C2)cc1	-	MIC bound	-	BACTEC	H37Rv	-	>12.5 µg/mL
C[C@H]1COc2c(N3CCN(C)CC3)c(F)cc3c(=O)c(C(=O)O)cn1c23	-	MIC	-	-	Strain 448	-	0.25 µg/mL
Cc1ccc(NNc2cc(=O)[nH]c(=O)[nH]2)cc1Cl	-	inhibition	12.5 µg/mL	BACTEC	H37Rv	-	100%
C[C@H](NCCNCC(c1ccccc1)c1ccccc1)C1CCCCC1	-	MIC	-	-	-	-	25 µM
NC[C@H]1O[C@H](O[C@H]2[C@H](O)[C@@H](O[C@H]3O[C@H](CO)[C@@H](O)[C@H](N)[C@H]3O)[C@H](N)C[C@@H]2N)[C@H](O)[C@@H](O)[C@@H]1O	-	Mean MIC	-	-	H37Rv	-	2 µg/mL
O=c1[nH]c2ccc(Cl)cc2c(O)c1N=Nc1cccc([N+](=O)[O-])c1	-	inhibition	6.25 µg/mL	resazurin	H37Rv	-	96%
Cc1ccc(CSc2ncccn2)cc1	-	inhibition	6.25 µg/mL	-	H37Rv	-	0%
NC[C@H]1O[C@H](O[C@H]2[C@H](O)[C@@H](O[C@H]3O[C@H](CO)[C@@H](O)[C@H](N)[C@H]3O)[C@H](N)C[C@@H]2N)[C@H](O)[C@@H](O)[C@@H]1O	-	MIC	-	-	90-0145 (drug-susceptible)	-	4 µg/mL
C=CCN(CC=C)C(=O)Nc1ccc(C(=O)N/N=C/c2cccc(OC)c2OC)cc1	-	inhibition	6.25 µg/mL	resazurin	H37Rv	-	8%
CC[C@H]1OC(=O)[C@H](C)[C@@H](O[C@H]2C[C@@](C)(OC)[C@@H](O)[C@H](C)O2)[C@H](C)[C@@H](O[C@@H]2O[C@H](C)C[C@H](N(C)C)[C@H]2O)[C@](C)(OC)C[C@@H](C)C(=O)[C@H](C)[C@@H](O)[C@]1(C)O	-	MIC	-	-	S-6M (susceptible)	-	>8 µg/mL
CC1(C)[C@H]2CC[C@@H](CNCCNCCC3=CCCCC3)[C@@H]1C2	-	MIC	-	-	-	-	25 µM
COc1ccc(CCc2cc(OC)c3ccccc3n2)cc1OC	-	MIC	-	-	MT7	-	77 µg/mL
CC(=O)Nc1ccc(S(=O)(=O)NNc2nc(N(C)C)nc(N(C)C)n2)cc1	-	MIC bound	-	BACTEC	H37Rv	-	>12.5 µg/mL
COc1ccc(Sc2nc(Cl)nc3nc[nH]c23)cc1	-	MIC	-	-	H37Ra	-	>12.8 µg/mL
O=c1[nH]c2c(Cl)c(Cl)ccc2c(O)c1N=Nc1cccc([N+](=O)[O-])c1	-	inhibition	6.25 µg/mL	resazurin	H37Rv	-	27%
Cc1ccc(Sc2nc(Cl)nc3nc[nH]c23)cc1C	-	MIC90	-	-	H37Rv	-	>6.25 µg/mL
Cc1nn(C(=S)S)c(C)c1N=Nc1ccc(Br)cc1	-	MIC	-	BACTEC	H37Rv	-	≥12.5 µg/mL
COc1ccccc1Sc1ccncc1	-	inhibition	6.25 µg/mL	-	H37Rv	-	63%
CC1CCC(NCCNC[C@]2(C)CCC[C@]3(C)c4ccc(C(C)C)cc4CC[C@@H]23)CC1	-	MIC	-	-	-	-	25 µM
Cc1c(C(=O)/C=C/c2ccccc2[N+](=O)[O-])[n+](=O)c2ccccc2n1[O-]	VERO	MIC	-	-	H37Rv	-	3.1 µg/mL
Cc1ccc(N=Nc2c(O)c3c(Cl)ccc(Cl)c3[nH]c2=O)cc1	-	inhibition	6.25 µg/mL	resazurin	H37Rv	-	11%
CCOC(=O)C(=O)CC1=CC=CC2=NC(=O)CCN12	-	inhibition	6.25 µg/mL	resazurin	H37Rv	-	-27%
C=C(C)/C=C/[C@]12C[C@H](C)[C@H]3CC[C@](C)(N)[C@@H](CC[C@H]1C)[C@@H]32	-	inhibition	64 µg/mL	-	H37Rv	-	100%